Earlier results as cited in US20120121679A1, “VIRICIDAL AND MICROBICIDAL COMPOSITIONS AND USES THEREOF” (University of Georgia Research Foundation, Inc., priority 2009, published 2012).

Tested on: FCV
Details: 3,000 ppm chlorine, 10 min, room temperature, virus suspended in cell culture media; cited from earlier work

For chlorine, the “inactivation of FCV” value is given as 3 log PFU/ml.
